Here are results for two molecules from US20210269512A1 (NOVOBIND LIVESTOCK THERAPEUTICS, published 2021).

For the experiment, the target named is T1, Cpa (phospholipase) (Clostridium perfringens, UniProt P0C216 29-398).
T1 sequence: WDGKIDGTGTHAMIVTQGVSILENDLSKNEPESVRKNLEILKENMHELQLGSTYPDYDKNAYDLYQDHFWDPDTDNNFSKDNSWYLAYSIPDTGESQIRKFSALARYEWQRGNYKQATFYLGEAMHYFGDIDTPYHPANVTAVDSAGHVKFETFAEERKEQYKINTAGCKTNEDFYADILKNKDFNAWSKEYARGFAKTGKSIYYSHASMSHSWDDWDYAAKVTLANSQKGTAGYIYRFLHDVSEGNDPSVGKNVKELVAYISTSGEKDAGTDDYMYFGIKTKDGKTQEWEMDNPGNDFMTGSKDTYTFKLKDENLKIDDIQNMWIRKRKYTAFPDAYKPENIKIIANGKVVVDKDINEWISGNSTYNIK
Description: cell-based or functional assay.

Bounds are passed on as bounds.

B1: NBX0330 (VHH)
VHH: QVQLQESGGGLVQAGGSLRLSCAASSRTFSNYAMAWFRQTPGKEREFLATINGDTTFTIYADSVKGRFTISRDNAKNTLYLQMNSLKAEDTAVYYCAARQWNPTMRERDYGYWGQGTEVTVSS
For the molecule B1, the “Cpa lecithinase activity reduced by >40% at 1 µM” value is at most 40%.

B2: NBX0340 (VHH)
VHH: QVQLQESGGGLVQAGESLRLSCLAAGRTFSTSTLGWFRQAPGLEREFVAAIRYTSDYTARTTDYADSVKGRFAISRDYIKQAVYLQMNNLKPEDTAVYYCAAAKYGMGYSDPSGYTYWGQGTQVTVSS
Regarding B2, the “Cpa lecithinase activity reduced by >40% at 1 µM” value was at most 40%.
